The series deals with the molecule itself. As to the kind of experiment: atomic force microscopy (high speed AFM).

B1: FraC V8C/K69C, oxidised (natural protein)
chain: ADVAGACIDGAGLGFDVLKTVLEALGNVKRKIAVGIDNESGKTWTAMNTYFRSGTSDIVLPHKVAHGCALLYNGQKNRGPVATGVVGVIAYSMSDGNTLAVLFSVPYDYNWYSNWWNVRVYKGQKRADQRMYEELYYHRSPFRGDNGWHSRGLGYGLKSRGFMNSSGHAILEIHVTKA
For the protein B1, the binding result was “binds”.
